System: epimastigote form of Trypanosoma cruzi
Assay: Antiproliferative assay, epimastigote form of Trypanosoma cruzi (XTT, 96 h)
Type: cell-based
Conditions: for fold less potent for T. cruzi compared to L. amazonensis: ratio of IC50 values
Method: All the novel trifluoromethylated pyrazoles derivatives 2a–f, 3a–f, and 4a–f were evaluated against the promastigote form of L. amazonensis and the epimastigote form of T. cruzi. The results are reported as the concentration causing a 50% inhibition in cell growth (IC50). Additionally, the toxicity of compounds was evaluated against two different cell lines: epithelial cell LLCMK2 and macrophages J774A1. The antiproliferative and cytotoxic activities are shown in Table 2 , as well as the calculated selectivity index (SI).
2.4. Antiproliferative activity
Promastigotes forms of Leishmania amazonensis (strain WHOM/ BR/75/JOSEFA) were
cultured in Warren medium (brain heart infusion, hemin, and folic acid; pH 7.4) supplemented with
10% fetal bovine serum (FBS) at 25 °C. Epimastigote forms of Trypanosoma cruzi (Y strain) were
cultured in LIT medium (liver infusion tryptose; hemim, and folic acid; pH 7.4) supplemented with
Cytotoxicity activity was determined in LLCMK2 (epithelial cells of kidney of Macaca
mulatta) cells and J774A1 macrophages. LLCMK2 (epithelial cells of kidney of Macaca mulatta) cells
were cultured in Dulbecco’s modified Eagle’s medium (DMEM, pH 7.2) supplemented with 10% FBS
at 37 °C in a 5% CO2 atmosphere. J774A1 macrophages were cultured in RPMI-1640 (pH 7.2) medium
supplemented with 10% FBS at 37 °C in a 5% CO2 atmosphere.
2.4.2. Dilution of compounds
Stock solutions of the compounds were prepared in DMSO and then diluted in the respective
medium. The groups (controls and treated) were tested with DMSO concentrations below 1%, with
2.4.3. Antiproliferative assay
Promastigote forms (1 × 10^6 parasites/mL) were cultured in 96-well plates in the presence and
absence of different concentrations of compounds diluted in Warren medium supplemented with 10%
FBS and incubated for 72h. Epimastigote forms (1 × 10^6 parasites/mL) were cultured in 96 -well plates
in the presence and absence of different concentrations of compounds diluted in LIT medium
supplemented with 10% FBS and incubated for 96h. After treatment, the parasites were incu bated with
a solution of 2,3 -bis (2 -methoxy -4-nitro -5-sulfophenyl) -2H-tetrazolium -5-carboxanilide (XTT; 0.5
mg/mL) and phenazine methanesulfonate activator (PMS; 0.06 mg/mL) in PBS for 4h. Then, the
absorbance was read in a microplate reader (Bio Tek - Power Wave XS) at 450 nm. The percentage of
viable parasites was calculated in relation to the control in order to determine the concentration that
inhibits 50% of the protozoa (IC 50).
2.4.4. Cytotoxicity assay
LLCMK2 cells (2.5 × 10^5 cells/mL) suspension was prepared in DMEM medium supplemented
with 10% FBS and added to 96-well plates. Then, the plates were incubated at 37 °C in a […]
mg/mL) for 4h. Then, DMSO was added for solubilization of the formazan and analyzed with a reading

Row | SMILES | fold decrease in activity against T. cruzi (formyl derivative compared to 2a) [fold] | fold less potent for T. cruzi compared to L. amazonensis
1 | O=Cc1c(C(F)(F)F)nn(-c2ccccc2)c1-c1ccc([N+](=O)[O-])cc1 [compound 5, 3-trifluoromethyl-4-formyl-5-(4-nitrophenyl)-1-phenyl-1H-pyrazole] | 2 | –
2 | Nc1nnc(-c2c(C(F)(F)F)nn(-c3ccccc3)c2-c2ccc(Br)cc2)s1 [4d, 4-[(2-amino)-1,3,4-thiadiazo-5-yl]-5-(4-Bromophenyl)-3-trifluoromethyl-1-phenyl-1H-pyrazole] | – | about 2 fold
3 | CSC(N)=NN=Cc1c(C(F)(F)F)nn(-c2ccccc2)c1-c1ccc(Br)cc1 [3d] | – | about 2 fold
4 | NC(=S)NN=Cc1c(C(F)(F)F)nn(-c2ccccc2)c1-c1ccc(Br)cc1 [2d, 5-(4-bromophenyl)-4-[(2-carbamothioyl-hydrazinylidene)methyl]-3-trifluoromethyl-1-phenyl-1H-pyrazole] | – | about 2 fold

From paper PMC7576996, “Antiparasitic Behavior of Trifluoromethylated Pyrazole 2-Amino-1,3,4-thiadiazole Hybrids and Their Analogues: Synthesis and Structure-Activity Relationship” (Frontiers in Pharmacology, 2020)
